A mixed list of measured activities; the numbers were collected in NIAID ChemDB.

All rows: tests in culture

Two numbers with a dash give a range or band. Blank or dashed fields: not listed here. Conditions beyond the fields shown may differ between rows. MIC50, MIC90 and the like: level of inhibition, or share of isolates inhibited. Zone: diameter of growth inhibition.

| SMILES | agent | strain or isolate | read by | setting | measure | tested at | result |
|---|---|---|---|---|---|---|---|
| C=CCc1ccc(O)c(OC)c1 | Candida glabrata | 2994 | turbidity | - | MIC90 | - | 500 µg/mL |
| Cc1nc2c(s1)C(=O)C(Nc1ccc(C#N)cc1)=C(Cl)C2=O | Candida utilis | KCCM 50662 | broth dilution | - | MIC | - | 25 µg/mL |
| C[C@H]1[C@H](O)[C@@H](C)/C=C/C=C/C=C/C=C/C=C/C=C/C=C/[C@H](O[C@@H]2O[C@H](C)[C@@H](O)[C@H](N)[C@@H]2O)C[C@@H]2O[C@](O)(C[C@@H](O)C[C@@H](O)CC[C@H](O)[C@@H](O)C[C@@H](O)CC(=O)O[C@H]1C)C[C@H](O)[C@H]2C(=O)O | Candida lusitaniae | UTHSC 11-586 | broth dilution | - | MIC | - | 1 µg/mL |
| C[C@H]1[C@H](O)[C@@H](C)/C=C/C=C/C=C/C=C/C=C/C=C/C=C/[C@H](O[C@@H]2O[C@H](C)[C@@H](O)[C@H](N)[C@@H]2O)C[C@@H]2O[C@](O)(C[C@@H](O)C[C@@H](O)CC[C@H](O)[C@@H](O)C[C@@H](O)CC(=O)O[C@H]1C)C[C@H](O)[C@H]2C(=O)O | Candida rugosa | - | agar diffusion / agar | - | zone | 150 µg/mL | 22 mm |
| O=C1C(Cl)=C(Oc2cccc(N3CC(c4nnco4)CC3=O)c2)C(=O)c2ccccc21 | Candida tenuis | VCM Y-70 | - | - | MIC | - | 31.2 µg/mL |
| O=C(CCn1ccnc1)c1ccc(Cl)cc1 | Candida kefyr | RTCC 1019 | broth dilution | - | MIC | - | 16 µg/mL |
| CCCCCCCCCCCCCCCCn1cc[n+](COCCCOC[n+]2ccn(CCCCCCCCCCCCCCCC)c2)c1 | Candida krusei | ATCC 6258 | agar diffusion | - | MIC100 | - | 13 µM |
| Cc1ccc(NC2=C(Cl)C(=O)c3nc(C)sc3C2=O)cc1 | Candida utilis | KCCM 50662 | broth dilution | - | MIC | - | 6.3 µg/mL |
| O=C(NN=Cc1ccco1)c1snnc1C(F)(F)F | Candida rugosa | NCIM 3462 | agar diffusion / agar | - | zone | 100 µg/mL | 0 mm |
| CC1C(=O)N(CCCCc2ccccc2)C(=O)C1C | Candida lusitaniae | CCC 134-2000 | broth dilution / turbidity | - | MIC | - | 125 µg/mL |
| OC(Cn1cncn1)(Cn1cncn1)c1ccc(F)cc1F | Candida guilliermondii | - | agar | - | MIC | - | 12.5–25 µg/mL |
| OC(CN1CCN(c2ccc(OCc3ccncc3)cc2)CC1)(Cn1cncn1)c1ccc(F)cc1F | Candida albicans | 17 | - | - | MIC80 | - | 2 µg/mL |
| O=C(CN1CCOCC1)Nc1nc(-c2ccccc2)cc(-c2ccc(F)cc2)n1 | Candida spp. | Strains 7 and 7 | - | - | MIC | - | 12.5 µg/mL |
| N=c1oc2ccccc2c2csc(N)c12 | Candida guilliermondii | - | broth dilution | - | MIC | - | 128 µg/mL |
| COc1cc(C2c3ccc4ccccc4c3Oc3nc(-c4cc5ccccc5oc4=O)[nH]c(=O)c32)ccc1O | Candida rugosa | - | agar diffusion / agar | - | zone | 100 µg/mL | 12 mm |
| O=C1C(Cl)=C(Oc2cccc(N3CC(C(=O)N/N=C/c4ccc(Br)cc4)CC3=O)c2)C(=O)c2ccccc21 | Candida tenuis | VCM Y-70 | - | - | MIC | - | 1.9 µg/mL |
| C[C@H]1[C@H](O)[C@@H](C)/C=C/C=C/C=C/C=C/C=C/C=C/C=C/[C@H](O[C@@H]2O[C@H](C)[C@@H](O)[C@H](N)[C@@H]2O)C[C@@H]2O[C@](O)(C[C@@H](O)C[C@@H](O)CC[C@H](O)[C@@H](O)C[C@@H](O)CC(=O)O[C@H]1C)C[C@H](O)[C@H]2C(=O)O | Candida orthopsilosis | ATCC 96139 | broth dilution | - | MIC | - | 0.125 µg/mL |
| CN(C)c1ccc(C=NNC(=O)c2snnc2C(F)(F)F)cc1 | Candida rugosa | NCIM 3462 | agar diffusion / agar | - | zone | 100 µg/mL | 0 mm |
| CCOC(=O)C1C(=O)C=C(c2ccc(C)cc2)CC1c1ccc(C2CC(c3ccc(C)cc3)=CC(=O)C2C(=O)OCC)cc1 | Candida dubliniensis | Clinical isolate | - | - | MIC | - | 25 µg/mL |
| CCOC(=O)c1c(N)oc2c1cc(O)c1sc(C)nc12 | Candida utilis | KCCM 50662 | broth dilution | - | MIC | - | 50 µg/mL |
| Cc1ccccc1N1C(=O)C[C@@H](C)C1=O | Candida lusitaniae | CCC 134-2000 | broth dilution / turbidity | - | MIC | - | 125 µg/mL |
| Cc1nc2c(s1)C(=O)C(Nc1ccc(Cl)cc1)=C(Cl)C2=O | Candida utilis | KCCM 50662 | broth dilution | - | MIC | - | 12.5 µg/mL |
| CC1CC(=O)N(c2ccccc2)C1=O | Candida lusitaniae | CCC 134-2000 | broth dilution / turbidity | - | MIC | - | 125 µg/mL |
| OC(CCn1ccnc1)c1cccc(C(O)c2ccc(Br)cc2)c1 | Candida kefyr | RTCC 1019 | broth dilution | - | MIC | - | 2 µg/mL |
| C[C@@H]1C(=O)N(CCCCc2ccccc2)C(=O)[C@@H]1C | Candida lusitaniae | CCC 134-2000 | broth dilution / turbidity | - | MIC | - | 62.5 µg/mL |
| CCCn1cc[n+](COCCCOC[n+]2ccn(CCC)c2)c1 | Candida krusei | ATCC 6258 | agar diffusion | - | MIC100 | - | 1576 µM |
| O=C(NN=Cc1ccc(Cl)cc1)c1snnc1C(F)(F)F | Candida rugosa | NCIM 3462 | agar diffusion / agar | - | zone | 100 µg/mL | 0 mm |
| O=C(O)c1ccc(C[C@H](C(=O)O)[C@@H](O)C(=O)O)cc1 | Candida lusitaniae | SC5314 | - | - | MIC | - | 2 µg/mL |
| O=C1C(Oc2cccc(N3CC(c4nnco4)CC3=O)c2)=C(Oc2cccc(N3CC(c4nnco4)CC3=O)c2)C(=O)c2ccccc21 | Candida tenuis | VCM Y-70 | - | - | MIC | - | 3.9 µg/mL |
| O=C(NN=Cc1ccc(Br)cc1)c1snnc1C(F)(F)F | Candida rugosa | NCIM 3462 | agar diffusion / agar | - | zone | 150 µg/mL | 0 mm |
| O=C(OC(Cn1ccnc1)c1ccc(F)cc1)c1cccc(C(F)(F)F)c1 | Candida spp. | - | broth dilution | - | MIC | - | 43.8 µg/mL |
| Clc1ccc(C(Cn2ccnc2)OCc2csc3c(Cl)cccc23)c(Cl)c1 | Candida tropicalis | 65 isolates | visual reading | 48 h | MIC90 | - | 4 µg/mL |
| O=C1c2ccccc2CC1Cn1ccnc1 | Candida kefyr | RTCC 1074 | broth dilution | - | MIC | - | 64 µg/mL |
| CCCCCOc1ccc(-c2cc(-c3ccc(C(=O)N[C@H]4C[C@@H](O)[C@@H](O)NC(=O)[C@@H]5[C@@H](O)[C@@H](C)CN5C(=O)[C@H]([C@H](O)CC(N)=O)NC(=O)[C@H]([C@H](O)[C@@H](O)c5ccc(O)c(OS(=O)(=O)O)c5)NC(=O)[C@@H]5C[C@@H](O)CN5C(=O)[C@H]([C@@H](C)O)NC4=O)cc3)no2)cc1 | Candida dubliniensis | - | broth dilution | - | MIC50 | - | 0.016 µg/mL |
| CCOC(=O)C1C(=O)C=C(c2ccc(Br)cc2)CC1c1ccc(C2CC(c3ccc(Br)cc3)=CC(=O)C2C(=O)OCC)cc1 | Candida dubliniensis | Clinical isolate | - | - | MIC | - | 12.5 µg/mL |
| OC(CCn1ccnc1)c1ccc(-c2ccccc2)cc1 | Candida guilliermondii | RTCC 1377 | broth dilution | - | MIC | - | >64 µg/mL |
| O=c1[nH]c(-c2cc3ccccc3oc2=O)nc2c1C(c1ccc(Cl)cc1)c1ccc3ccccc3c1O2 | Candida rugosa | - | agar diffusion / agar | - | zone | 150 µg/mL | 14 mm |
| O=C(NN=Cc1ccc(O)cc1)c1snnc1C(F)(F)F | Candida rugosa | NCIM 3462 | agar diffusion / agar | - | zone | 100 µg/mL | 0 mm |
| CCCCCCCCCCCCCCCC(=O)NC(CCCCN)C(=O)NC(CCCCN)C(N)=O | Candida guilliermondii | 165 | broth dilution | - | MIC | - | 8 µg/mL |
| O=C1C(Oc2cccc(N3CC(C(=O)N/N=C/c4ccc(Br)cc4)CC3=O)c2)=C(Oc2cccc(N3CC(C(=O)N/N=C/c4ccc(Br)cc4)CC3=O)c2)C(=O)c2ccccc21 | Candida tenuis | VCM Y-70 | - | - | MIC | - | 250 µg/mL |
| CCCCCn1cc[n+](COCCCCCOC[n+]2ccn(CCCCC)c2)c1 | Candida krusei | ATCC 6258 | agar diffusion | - | MIC100 | - | 8 µM |
| CCOC(=O)C1C(=O)C=C(c2ccc(OC)cc2)CC1c1ccc(C2CC(c3ccc(OC)cc3)=CC(=O)C2C(=O)OCC)cc1 | Candida dubliniensis | Clinical isolate | - | - | MIC | - | 200 µg/mL |
| COc1ccc(C2c3ccc4ccccc4c3Oc3nc(-c4cc5ccccc5oc4=O)[nH]c(=O)c32)cc1 | Candida rugosa | - | agar diffusion / agar | - | zone | 150 µg/mL | 20 mm |
| OC(CCn1ccnc1)c1cccc(C(O)c2ccc(Cl)cc2)c1 | Candida kefyr | RTCC 1074 | broth dilution | - | MIC | - | >64 µg/mL |
| Nc1ncccc1-c1cc(Cc2ccc(COc3ccccn3)cc2)no1 | Candida spp. | Fluconazole-resistant | broth dilution | - | MIC50 | - | 0.016 µg/mL |
| CCC(C)n1ncn(-c2ccc(N3CCN(c4ccc(OC[C@H]5CO[C@](Cn6cncn6)(c6ccc(Cl)cc6Cl)O5)cc4)CC3)cc2)c1=O | Candida orthopsilosis | ATCC 96139 | broth dilution | - | MIC | - | 0.0625 µg/mL |
| Cc1ccc(C(O)c2cccc(C(=O)CCn3ccnc3)c2)cc1 | Candida guilliermondii | RTCC 1377 | broth dilution | - | MIC | - | 64 µg/mL |

A second listing of 7 rows from above:

SMILES,agent,strain or isolate,read by,setting,measure,tested at,result
COc1ccc(C2c3ccc4ccccc4c3Oc3nc(-c4cc5ccccc5oc4=O)[nH]c(=O)c32)cc1,Candida rugosa,-,agar diffusion / agar,-,zone,150 µg/mL,20 mm
O=C1C(Cl)=C(Oc2cccc(N3CC(C(=O)N/N=C/c4ccc(Br)cc4)CC3=O)c2)C(=O)c2ccccc21,Candida tenuis,VCM Y-70,-,-,MIC,-,1.9 µg/mL
OC(CCn1ccnc1)c1cccc(C(O)c2ccc(Br)cc2)c1,Candida kefyr,RTCC 1019,broth dilution,-,MIC,-,2 µg/mL
O=c1[nH]c(-c2cc3ccccc3oc2=O)nc2c1C(c1ccc(Cl)cc1)c1ccc3ccccc3c1O2,Candida rugosa,-,agar diffusion / agar,-,zone,150 µg/mL,14 mm
Cc1nc2c(s1)C(=O)C(Nc1ccc(Cl)cc1)=C(Cl)C2=O,Candida utilis,KCCM 50662,broth dilution,-,MIC,-,12.5 µg/mL
O=C1c2ccccc2CC1Cn1ccnc1,Candida kefyr,RTCC 1074,broth dilution,-,MIC,-,64 µg/mL
C=CCc1ccc(O)c(OC)c1,Candida glabrata,2994,turbidity,-,MIC90,-,500 µg/mL